Source: patent US4239708A, “P-Phenylene bis[imino(thiocarbonyl)] diphosphoramidic acid esters as anthelmentic agents” (dated 1980)

How the values were obtained:
Haemonchus contortus = experiment: Efficacy test in sheep, H. contortus; details: oral dose 50 mg/kg
Ostertagia circumcincta = experiment: Efficacy test in sheep, O. circumcincta; details: oral dose 50 mg/kg
[1] = test system: Trichostrongylus colubriformis; experiment: Efficacy test in sheep, T. colubriformis; details: oral dose 50 mg/kg
[2] = test system: Trichostrongylus colubriformis; experiment: Control of adult Trichostrongylus colubriformis in rabbits; details: single oral dose 50 mg/kg
Hymenolepis nana = experiment: Mouse/Helminth Evaluation, H. nana; details: mice, absence or presence of parasites is criterion
Nematospiroides dubius = experiment: Mouse/Helminth Evaluation, N. dubius; details: mice
Aspicularis tetraptera = experiment: Mouse/Helminth Evaluation, A. tetraptera; details: mice, absence or presence of parasites is criterion

Structure (SMILES)	% Efficacy Against H. contortus (Haemonchus contortus) [%]	% Efficacy Against O. circumcineta (Ostertagia circumcincta) [%]	% Efficacy Against T. colubriformis [1] [%]	% Efficacy [2] [%]	activity against H. nana (Hymenolepis nana; 0.05% in diet for 7 days)	activity against H. nana (Hymenolepis nana; 50 mg/kg single oral dose)	activity against N. dubius (Nematospiroides dubius; 0.05% in diet for 7 days)	activity against N. dubius (Nematospiroides dubius; 50 mg/kg single oral dose)	activity against A. tetraptera (Aspicularis tetraptera; 0.05% in diet for 7 days)	activity against A. tetraptera (Aspicularis tetraptera; 50 mg/kg single oral dose)	activity against H. nana (Hymenolepis nana; 0.025% in diet for 7 days)	activity against H. nana (Hymenolepis nana; 0.1% in diet for 7 days)	activity against N. dubius (Nematospiroides dubius; 0.025% in diet for 7 days)	activity against N. dubius (Nematospiroides dubius; 0.1% in diet for 7 days)
CCOP(=O)(NC(=S)Nc1ccccc1NC(=O)NS(=O)(=O)c1ccc(C)cc1)OCC	97.8	44.2	48.2	0	–	–	–	–	–	–	–	–	–	–
CCOP(=O)(NC(=S)Nc1ccc(NC(=S)NP(=O)(OCC)OCC)c(C)c1)OCC	–	–	–	–	Active	Active	Inactive	Inactive	Active	Active	–	–	–	–
CCOP(=O)(NC(=S)Nc1ccc(NC(=S)NP(=O)(OCC)OCC)c(SC)c1)OCC	–	–	–	–	Active	Active	Inactive	Inactive	Active	Active	–	–	–	–
CCOP(=O)(NC(=S)Nc1ccc(NC(=S)NP(=O)(OCC)OCC)c(I)c1)OCC	–	–	–	–	Active	Active	Inactive	Inactive	Active	Inactive	–	–	–	–
CCOP(=S)(NC(=O)Nc1ccccc1NC(=O)NP(=S)(OCC)OCC)OCC	–	–	–	–	Inactive	Inactive	Inactive	Inactive	Inactive	Inactive	–	–	–	–
CCOP(=O)(NC(=S)Nc1cc(C)c(NC(=S)NP(=O)(OCC)OCC)c(Cl)c1)OCC	–	–	–	–	Active	Active	Inactive	Inactive	Active	Active	–	–	–	–
CCOP(=O)(NC(=S)Nc1ccc(NC(=S)NP(=O)(OCC)OCC)c(Oc2ccccc2)c1)OCC	–	–	–	–	Active	Active	Inactive	Inactive	Active	Active	–	–	–	–
CCOP(=O)(NC(=S)Nc1cc(Cl)c(NC(=S)NP(=O)(OCC)OCC)cc1C)OCC	–	–	–	–	Active	Inactive	Inactive	Inactive	Active	–	–	–	–	–
CCOP(=O)(NC(=S)Nc1ccc(NC(=S)NP(=O)(OCC)OCC)c(SCc2ccccc2)c1)OCC	–	–	–	–	Active	Inactive	Inactive	Inactive	Active	–	–	–	–	–
CCOP(=O)(NC(=S)Nc1ccc(NC(=S)NP(=O)(OCC)SCC)c(OC)c1)SCC (centres unmarked)	–	–	–	–	Inactive	–	Inactive	–	–	–	Inactive	Inactive	Inactive	Inactive
CCOP(=O)(NC(=S)Nc1ccc(NC(=S)NP(=O)(OCC)OCC)c(Cl)c1Cl)OCC	–	–	–	–	Active	Inactive	Inactive	Inactive	Active	Active	–	–	–	–
CCOP(=O)(NC(=S)Nc1ccc(NC(=S)NP(=O)(OCC)OCC)c(C)c1C)OCC	–	–	–	–	Active	Inactive	Inactive	Inactive	Active	Active	–	–	–	–
CC(C)OP(=O)(NC(=S)Nc1ccc(NC(=S)NP(=O)(OC(C)C)OC(C)C)c(Cl)c1)OC(C)C	–	–	–	–	Active	Active	Inactive	Inactive	Active	Active	–	–	–	–
CCOP(=O)(NC(=S)Nc1ccc(NC(=S)NP(=O)(OCC)OCC)c(C(F)(F)F)c1)OCC	–	–	–	–	Active	Inactive	Inactive	Inactive	Active	Active	–	–	–	–
